Measured values as given in patent publication US20230270872A1, “CONJUGATE OF SAPONIN AND SINGLE-DOMAIN ANTIBODY, PHARMACEUTICAL COMPOSITION COMPRISING SAID CONJUGATE, THERAPEUTIC USE THEREOF” (SAPREME TECHNOLOGIES B.V., priority 2020, published 2023).

Tests used:
A431 cells = experiment: Cell viability (MTS) assay, targeted protein toxin mediated cell killing; format: cell-based, human; conditions: A431 (EGFR++/HER2+/-)
[1] = tested on: A431 (EGFR++/HER2+/-/CD71+) xenograph; experiment: A431 xenograph nude mouse tumor model, 2T2C tumor targeted cell killing; format: in vivo; conditions: second experiment: 25 mg/kg cetuximab-(Cys-L-SO1861)^4 i.p. + 0.03 mg/kg toxin conjugate i.v., day 9, 14, then weekly; cetuximab as positive control
Description: The 2 target 2-components system (2T2C) is the combination treatment of mAb1-SO1861 and mAb2-protein toxin, (FIG. 1B-D).

MDA-MB-468 cells = experiment: Cell viability (MTS) assay, targeted protein toxin mediated cell killing; format: cell-based, human; conditions: read-out: IC50, mAb or T-DM1 monotherapy

Q: Which results are given for “Cetuximab: monoclonal antibody recognizing and binding human EGFR”?
A: IC50, cell killing; titration of SO1861 conjugate or unconjugated mAb control, alone or + fixed toxin conjugate as in label (A431 cells): could not induce any cell killing activity; tumor response [1]: only tumor growth inhibition, but no regression

Q: With “T-DM1: Trastuzumab-emtansine carrying ~3.5 DM1 toxin molecules per antibody” as the substance, how does the IC50 (MDA-MB-468 cells) read?
A: 60 nM

Q: With “cetuximab-(Cys-L-SO1861)^3,7: SO1861-EMCH conjugated via cysteine residues to cetuximab” as the substance, how does the “IC50, cell killing; titration of SO1861 conjugate or unconjugated mAb control, alone or + fixed toxin conjugate as in label” value (A431 cells) read?
A: could not induce any cell killing activity
